A mixed list of measured activities; the numbers were collected in NIAID ChemDB.

All rows: growth or infection tests

MIC50, MIC90 and the like: level of inhibition, or share of isolates inhibited.

structure	agent	strain	mutations	read by	conditions	measure	dose	value
CCCCCCCCCCNC(=O)Nc1ccc(S(=O)(=O)Nc2cc(C)on2)cc1	Mycobacterium kansasii	235/80		broth dilution / absorbance	14 d	MIC100		125 µM
O=C(Nc1ccc(Cl)cc1)c1cc(Cl)ccc1OP(=O)(OCc1ccccc1)OCc1ccccc1	Mycobacterium kansasii	My 235/80			14 d	MIC		32 µM
COc1ccc(C2CC(c3ccc4c(c3)OCO4)=Nc3c(N)nc(SC)nc3N2)cc1	Mycobacterium szulgai	MNT1100		MTT / broth dilution / absorbance	clinical isolate	MIC		>32 µg/mL
O=C1c2cc(Br)ccc2OP(=O)(c2ccccc2)N1c1ccc(C(F)(F)F)cc1	Mycobacterium kansasii	My 235/80			14 d	MIC		8 µM
C[C@H]1c2cccc(O)c2C(O)=C2C(=O)[C@]3(O)C(O)=C(C(N)=O)C(=O)[C@@H](N(C)C)[C@@H]3[C@@H](O)[C@@H]21	Mycobacterium smegmatis	A9826				MIC		0.06 µg/mL
CO[C@@H]1C[C@@H](C[C@H]2CC[C@H](C)[C@H]([C@@H](C)C(=O)O)O2)O[C@]2(O[C@](C)([C@H]3CC[C@@](C)([C@@H]4O[C@@H]([C@H]5O[C@@](O)(CO)[C@H](C)C[C@@H]5C)C[C@@H]4C)O3)C[C@H]2C)[C@@H]1C	Mycobacterium marinum	ATCC BAA-353	G262	resazurin		MIC		5 µg/mL
Nc1nc(N)c2c(n1)NC(c1ccc3c(c1)OCO3)CC(c1ccccc1)=N2	Mycobacterium szulgai	MNT1100		MTT / broth dilution / absorbance	clinical isolate	MIC		>32 µg/mL
CCC1CN(c2c(F)cc3c(=O)c(C(=O)O)cn(C4CC4)c3c2OC)CCN1	Mycobacterium smegmatis	KD1990 (GYRA D95A)				MIC99		0.3 µg/mL
CO[C@H]1/C=C/O[C@@]2(C)Oc3c(C)c(O)c4c(O)c(c(N5CCN(Cc6c(C)cc(C)cc6C)CC5)c(O)c4c3C2=O)NC(=O)/C(C)=C\C=C\[C@H](C)[C@H](O)[C@@H](C)[C@@H](O)[C@@H](C)[C@H](OC(C)=O)[C@@H]1C	Mycobacterium avium	3337-4				MBC		8 µg/mL
C=C[C@@](C)(/C=C/c1ccc(O)cc1)CCC=C(C)C	Mycobacterium aurum					MIC50		15.79 µg/mL
COc1nc2ccc(Br)cc2cc1[C@@H](c1ccccc1)[C@@](O)(CCN(C)C)c1cccc2ccccc12	Mycobacterium aurum			resazurin		MIC		0.01 µg/mL
CN[C@@H]1[C@H](O[C@H]2[C@H](O[C@H]3[C@H](O)[C@@H](O)[C@H](N=C(N)N)[C@@H](O)[C@@H]3N=C(N)N)O[C@@H](C)[C@]2(O)C=O)O[C@@H](CO)[C@H](O)[C@H]1O	Mycobacterium luteus			agar diffusion		zone	0.5 µg/mL	23 mm
O=C(Nc1ccccc1)c1ccccc1OP(=O)(Oc1ccccc1)c1ccccc1	Mycobacterium kansasii	My 235/80			21 d	MIC		500 µM
CN[C@@H]1[C@@H](O)[C@@H](O[C@@H]2[C@@H](O)[C@H](O[C@H]3O[C@H](CN)CC[C@H]3N)[C@@H](N)C[C@H]2N)OC[C@]1(C)O	Mycobacterium avium complex	31 strains		broth dilution		EC50		>8 µg/mL
O=c1c(O)c(-c2ccccc2)oc2cc(O)cc(O)c12	Mycobacterium phlei					MIC		50 µg/mL
CO[C@H]1/C=C/O[C@@]2(C)Oc3c(C)c(O)c4c(O)c(c(/C=N/N5CCN(C)CC5)c(O)c4c3C2=O)NC(=O)/C(C)=C\C=C\[C@H](C)[C@H](O)[C@@H](C)[C@@H](O)[C@@H](C)[C@H](OC(C)=O)[C@@H]1C	Mycobacterium aurum	A+				EC90		0.57 µg/mL
NC(=O)c1cnccn1	Mycobacterium avium complex	155 strains		agar		inhibition	50 µg/mL	0%
O=C(NOCc1ccccc1)c1cc(Br)cc(C(F)(F)F)c1	Mycobacterium vaccae	IMET 10670		resazurin		MIC		12.5 µM
O=c1cc(-c2ccc(O)cc2)oc2cc(O)cc(O)c12	Mycobacterium phlei					MIC		>100 µg/mL
CN1CC2=C(C(=O)c3ccccc3C2=O)C12C(=O)Nc1ccc(I)cc12	Mycobacterium luteus			agar diffusion		MIC		15.62 µg/mL
Nc1nc(N)c2c(n1)NC(c1ccc(C(F)(F)F)cc1)CC(c1ccc3c(c1)OCO3)=N2	Mycobacterium chelonae	MNT1407		MTT / broth dilution / absorbance	clinical isolate	MIC		32 µg/mL
CCN1C(=O)C2(C3=C(C(=O)c4ccccc4C3=O)C3CCCN32)c2ccccc21	Mycobacterium luteus			agar diffusion		MIC		125 µg/mL
CN[C@@H]1[C@H](O[C@H]2[C@H](O[C@H]3[C@H](O)[C@@H](O)[C@H](N=C(N)N)[C@@H](O)[C@@H]3N=C(N)N)O[C@@H](C)[C@]2(O)C=O)O[C@@H](CO)[C@H](O)[C@H]1O	Mycobacterium aurum	A+				EC50		<0.18 µg/mL
O=C(Nc1ccc(C(F)(F)F)cc1)c1cc(Cl)ccc1OP(=O)(Oc1ccccc1)Oc1ccccc1	Mycobacterium kansasii	My 235/80			14 d	MIC		4 µM
Cc1cc(NS(=O)(=O)c2ccc(NC(=O)Nc3ccc(S(=O)(=O)Nc4cc(C)on4)cc3)cc2)no1	Mycobacterium kansasii	235/80		broth dilution / absorbance	21 d	MIC100		2 µM
COc1cc(Cc2cnc(N)nc2N)cc(OC)c1OC	Mycobacterium ulcerans	Isolate 5155				MIC		>16 µg/mL
Nc1nc(N)c2c(n1)NC(c1ccc(Cl)cc1)CC(c1ccc3c(c1)OCO3)=N2	Mycobacterium chelonae	MNT1407		MTT / broth dilution / absorbance	clinical isolate	MIC		32 µg/mL
O=C(Nc1ccc(C(F)(F)F)cc1)c1cc(Cl)ccc1OP(=O)(c1ccccc1)c1ccccc1	Mycobacterium kansasii	My 235/80			7 d	MIC		2 µM
O=C(NOCc1ccccc1)c1cc([N+](=O)[O-])cc(C(F)(F)F)c1	Mycobacterium vaccae	IMET 10670		resazurin		MIC		3.13 µM
Nc1ccc(S(=O)(=O)c2ccc(N)cc2)cc1	Mycobacterium ulcerans	ATCC 19423				MBC		4 µg/mL
O=C(Nc1ccc(Br)cc1)c1cc(Cl)ccc1OP(=O)(c1ccccc1)c1ccccc1	Mycobacterium kansasii	My 235/80			21 d	MIC		8 µM
O=c1c(O)c(-c2ccc(O)cc2)oc2cc(O)cc(O)c12	Mycobacterium phlei					MIC		50 µg/mL
C[C@H]1COC2(CCN(c3nc(=O)c4cc(C(F)(F)F)cc([N+](=O)[O-])c4s3)CC2)O1	Mycobacterium vaccae	IMET 10670		broth dilution / turbidity		MIC		0.002 µg/mL
O=C(Nc1ccc(Br)cc1)c1cc(Cl)ccc1OP(=O)(Oc1ccccc1)Oc1ccccc1	Mycobacterium kansasii	My 235/80			21 d	MIC		16 µM
CCNC(=O)Nc1ccc(S(=O)(=O)Nc2cc(C)on2)cc1	Mycobacterium kansasii	6509/96 clinical isolate		broth dilution / absorbance	21 d	MIC100		500 µM
Nc1nc(N)c2c(n1)NC(c1ccccc1)CC(c1ccc3c(c1)OCO3)=N2	Mycobacterium chelonae	MNT1407		MTT / broth dilution / absorbance	clinical isolate	MIC		32 µg/mL
Nc1ccc(C(=O)O)c(O)c1	Mycobacterium fortuitum	22 strains		agar		inhibition	10 µg/mL	0%
CC[C@H]1OC(=O)[C@H](C)[C@@H](O[C@H]2C[C@@](C)(OC)[C@@H](O)[C@H](C)O2)[C@H](C)[C@@H](O[C@@H]2O[C@H](C)C[C@H](N(C)C)[C@H]2O)[C@](C)(OC)C[C@@H](C)C(=O)[C@H](C)[C@@H](O)[C@]1(C)O	Mycobacterium abscessus	X51		broth dilution		MIC		0.25 µg/mL
CCN1CCN(c2c(F)cc3c(=O)c(C(=O)O)cn(C4CC4)c3c2OC)CC1	Mycobacterium smegmatis	KD1163 (GRYA+)				MIC99		0.033 µg/mL
CNC(=O)Nc1ccc(S(=O)(=O)Nc2cc(C)on2)cc1	Mycobacterium kansasii	235/80		broth dilution / absorbance	7 d	MIC100		32 µM
COc1c(N2CCN(C(C)C)CC2)c(F)cc2c(=O)c(C(=O)O)cn(C3CC3)c12	Mycobacterium smegmatis	KD2008 (GYRA G89C)				MIC99		7.5 µg/mL
COc1c(O)cc2oc(-c3ccccc3)cc(=O)c2c1OC	Mycobacterium phlei					MIC		75 µg/mL
CC1CN(c2cc3c(cc2F)c(=O)c(C(=O)O)cn3C2CC2)CC(C)N1	Mycobacterium smegmatis	KD1163 (GRYA+)				MIC99		0.043 µg/mL
O=C(NO)c1ccc(Cl)cc1	Mycobacterium luteus	ATCC 10240		agar diffusion / agar		zone	2000 µM	0 mm
CCCc1c2c([nH]c(=O)c1C)C(=O)c1[nH]c(=O)c(C)c(CCC)c1C2=O	Mycobacterium abscessus	L948 (ATCC 19977)		resazurin / fluorescence		MIC90		>7.5 µg/mL
CC(C)(C)[Si](C)(C)ONC(=O)c1ccccc1	Mycobacterium luteus	ATCC 10240		agar diffusion / agar		zone	2000 µM	0 mm
C=CCN1C(=O)C2(C3=C(C(=O)c4ccccc4C3=O)C3CCCN32)c2ccccc21	Mycobacterium luteus			agar diffusion		zone	50 µg/mL	9 mm
CC1CN(c2c(F)cc3c(=O)c(C(=O)O)cn(C4CC4)c3c2F)CC(C)N1	Mycobacterium smegmatis	KD2003 (GYRA D95G)				MIC99		1.2 µg/mL
CC[C@@H](CO)NCCN[C@@H](CC)CO	Mycobacterium avium complex	9838				MBC		30 µg/mL
Cc1cc(NS(=O)(=O)c2ccc(NC(=O)C(=O)Nc3ccc(S(=O)(=O)Nc4cc(C)on4)cc3)cc2)no1	Mycobacterium kansasii	6509/96 clinical isolate		broth dilution / absorbance	21 d	MIC100		4 µM
Nc1nc(N)c2c(n1)NC(c1ccc(F)cc1)CC(c1ccc3c(c1)OCO3)=N2	Mycobacterium chelonae	MNT1407		MTT / broth dilution / absorbance	clinical isolate	MIC		>32 µg/mL
O=C(O)c1cn(C2CC2)c2c(F)c(N3CCNCC3)c(F)cc2c1=O	Mycobacterium smegmatis	KD1998 (GYRA D95N)				MIC99		1.3 µg/mL
CC[C@@H](CO)NCCN[C@@H](CC)CO	Mycobacterium avium complex	9838				MBC		30 µg/mL
CN(C)c1cc(NC(=O)CNC(C)(C)C)c(O)c2c1C[C@H]1C[C@H]3[C@H](N(C)C)C(=O)C(C(N)=O)=C(O)[C@@]3(O)C(=O)C1=C2O	Mycobacterium massiliense	V150		broth dilution		MIC		1 µg/mL

Blank or dashed fields: not listed here. Percent inhibition refers to the dose given; in toxicity tests it is the harm to the cells. Zone: diameter of growth inhibition. ECn is the concentration giving n% inhibition of infection, replication or growth. Conditions beyond the fields shown may differ between rows.